For two compounds, EC50 results are on record in ChEMBL document CHEMBL3085645, “Design, synthesis and biological evaluation of phosphorodiamidate prodrugs of antiviral and anticancer nucleosides” (Eur J Med Chem, 2013).

Assay [1] has as its system Human immunodeficiency virus 2. The assay can be described thus: Antiviral activity against HIV2 ROD infected in human CEM cells assessed as virus-induced giant cell formation after 4 days by microscopic analysis. The following applies: ccrf-cem, strain ISOLATE ROD.
In assay [2] the test system is Human immunodeficiency virus 1. In words: Antiviral activity against HIV1 3B infected in human CEM cells assessed as virus-induced giant cell formation after 4 days by microscopic analysis. As to conditions: ccrf-cem, strain 3B.

As a reminder, the EC50 is the concentration needed to bring the measured effect to its halfway point. As to `C[C@H](NP(=O)(Nc1ccn([C@H]2CS[C@@H](CO)O2)c(=O)n1)N[C@@H](C)C(=O)OCc1ccccc1)C(=O)OCc1ccccc1`, the values for the EC50 in assay [1] and in assay [2] were 0.4 µM and 0.28 µM, respectively.

For the compound `C[C@H](NP(=O)(Nc1ccn([C@H]2CS[C@@H](COP(=O)(N[C@@H](C)C(=O)OCc3ccccc3)N[C@@H](C)C(=O)OCc3ccccc3)O2)c(=O)n1)N[C@@H](C)C(=O)OCc1ccccc1)C(=O)OCc1ccccc1`, the EC50 in assay [1] is 58 µM; in assay [2] it was 16 µM.
